Measured values from several laboratories, pooled; numbers as filed in NIAID ChemDB.

All rows: growth or infection tests; species: Human cytomegalovirus; cells: HFF; read-out: EC50

Lines come from different laboratories, so protocols vary.

Nc1ncnc2c1c(Br)cn2COCCO ; strain or isolate: TOWNE ; method: plaque count ; value: 3.9 µM
Nc1nc(NC2CC2)c2ncn(C=C3CC3CO)c2n1 ; strain or isolate: AD169 ; method: plaque count ; value: 2.4 µM
Nc1ncnc2c1c(Br)cn2[C@@H]1O[C@H](CO)[C@@H](O)[C@H]1O ; strain or isolate: TOWNE ; method: virus yield ; value: <3.5 µM
N#Cc1c(Br)n(COCCO)c2ncnc(N)c12 ; method: plaque count ; value: >100 µM
NC(=O)c1cn(COC(CO)CO)c2ncnc(N)c12 ; method: plaque count ; value: >100 µM
NC(=S)c1c(N)n(COCCO)c2ncnc(N)c12 ; method: plaque count ; value: >100 µM
CC(=O)N(C)c1ccc(Nc2cc(S(=O)(=O)O)c(N)c3c2C(=O)c2ccccc2C3=O)cc1 ; strain or isolate: AD169 ; method: cytopathic effect ; value: >200 µM
Nc1nc2c(ncn2COC(CO)CO)c(=O)[nH]1 ; strain or isolate: TOWNE ; method: plaque count ; value: 7.4 µM
Nc1ncnc2c1ncn2/C=C1/C[C@@H]1CO ; strain or isolate: AD169 ; method: plaque count ; value: 1.9 µM
OCC1OC(n2c(SCc3ccccc3)nc3nc4cc(Cl)c(Cl)cc4nc32)C(O)C1O ; strain or isolate: TOWNE ; method: plaque count ; value: 4.2 µM
NC(=O)c1cn([C@@H]2O[C@H](CO)[C@@H](O)[C@@H]2O)c2ncnc(N)c12 ; method: plaque count ; value: 0.8 µM
COC(=O)C(C)NOP(OC[C@H]1C/C1=C/n1cnc2c(N)[nH]c(=O)nc21)Oc1ccccc1 ; strain or isolate: AD169 ; method: cytopathic effect ; value: >40.9 µM
COc1nc(N)nc2c1ncn2/C=C1/C[C@@H]1CO ; strain or isolate: AD169 ; method: plaque count ; value: 2 µM
Nc1ncnc2c1ncn2[C@@H]1C[C@@H](O)[C@H](CO)O1 ; value: >100 µM
N#Cc1cn([C@H]2CC[C@@H](CO)O2)c2ncnc(N)c12 ; method: plaque count ; value: 18 µM
N#Cc1c(N)n(COCCO)c2ncnc(N)c12 ; method: plaque count ; value: 32 µM
NC(=O)c1cn([C@H]2CC[C@@H](CO)O2)c2ncnc(N)c12 ; method: plaque count ; value: 133 µM
OCC1OC(n2c(NC3CC3)nc3nc4cc(Cl)c(Cl)cc4nc32)C(O)C1O ; strain or isolate: TOWNE ; method: plaque count ; value: 32 µM
CC1(C)OC[C@]2(C)[C@@H](CC[C@@]3(C)[C@H]2CC[C@H]2C[C@@H]4CC23CCC4=O)O1 ; method: plaque count ; value: >500 µM
Nc1ncnc2c1ncn2[C@H]1C[C@]12C[C@H]2CO ; strain or isolate: TOWNE ; method: plaque count ; value: 20 µM
Nc1nc(NC2CC2)c2ncn(C=C3CC3CO)c2n1 ; strain or isolate: TOWNE ; method: cytopathic effect ; value: 2 µM
NC(=O)c1cn([C@H]2C[C@H](O)[C@@H](CO)O2)c2ncnc(N)c12 ; strain or isolate: TOWNE ; method: plaque count ; value: 0.8 µM
Nc1ncnc2c1ccn2COCCO ; method: plaque count ; value: >100 µM
N#Cc1cn([C@@H]2O[C@H](CO)[C@@H](O)[C@@H]2O)c2ncnc(N)c12 ; strain or isolate: TOWNE ; method: plaque count ; value: 1.7 µM
Nc1c(S(=O)(=O)O)cc(Nc2ccccc2)c2c1C(=O)c1ccccc1C2=O ; strain or isolate: AD169 ; method: cytopathic effect ; value: 40 µM
COC(=O)[C@H](C)NP(=O)(OC[C@H]1C/C1=C/n1cnc2c(OC)nc(N)nc21)Oc1ccccc1 ; strain or isolate: TOWNE ; method: plaque count ; value: 0.16 µM
N#Cc1cn([C@@H]2O[C@H](CO)[C@@H](O)[C@H]2O)c2ncnc(N)c12 ; method: plaque count ; value: 0.05 µM
O=C(NCCc1c[nH]c2ccccc12)C1=Cc2ccncc2CC1 ; strain or isolate: 4760RECPOLA1-1-1 ; method: plaque count ; value: 0.3 µM
Nc1[nH]c(=O)nc2c1ncn2/C=C1/C[C@H]1CO ; strain or isolate: AD169 ; method: cytopathic effect ; value: >85.8 µM
NC(=O)c1c(Br)n(COCCO)c2ncnc(N)c12 ; method: plaque count ; value: >100 µM
COC(=O)[C@H](C)NP(=O)(OC[C@H]1C/C1=C/n1cnc2c(N)nc(N)nc21)Oc1ccccc1 ; strain or isolate: AD169 ; method: plaque count ; value: 7.8 µM
Nc1ccn([C@@H]2C[C@@H](O)[C@H](CO)O2)c(=O)n1 ; value: >100 µM
Cc1ccc(Cn2c(N)c(C#N)c3c(N)ncnc32)cc1 ; strain or isolate: TOWNE ; method: plaque count ; value: 0.3 µM
OCC1OC(n2cnc3nc4cc(Cl)c(Cl)cc4nc32)C(O)C1O ; strain or isolate: TOWNE ; method: plaque count ; value: 32 µM
Nc1ncnc2c1ccn2[C@H]1C=C[C@@H](CO)O1 ; method: plaque count ; value: >100 µM
Nc1ncnc2c1ncn2/C=C1/C[C@H]1CO ; strain or isolate: TOWNE ; method: plaque count ; value: 2.5 µM
C[C@]12CCC3OC[C@@]3(C)[C@@H]1CC[C@H]1C[C@@H]3CC12CC[C@]3(O)CO ; method: plaque count ; value: >500 µM
COC(=O)C(C)NP(=O)(OC[C@@H]1C/C1=C/n1cnc2c(N)nc(N)nc21)Oc1ccccc1 ; strain or isolate: TOWNE ; method: plaque count ; value: 23 µM
Cc1ccc(Nc2ccc(Nc3ccc(C)cc3)c3c2C(=O)c2ccccc2C3=O)cc1 ; strain or isolate: AD169 ; method: cytopathic effect ; value: >2 µM
N#Cc1cn([C@@H]2O[C@H](CO)[C@@H](O)[C@@H]2I)c2ncnc(N)c12 ; strain or isolate: TOWNE ; method: virus yield ; value: <20 µM
Cc1cn([C@@H]2C[C@@H](O)[C@H](CO)O2)c(=O)[nH]c1=O ; value: >100 µM
Nc1ccn([C@@H]2C[C@@H](O)[C@H](CO)O2)c(=O)n1 ; value: >100 µM
N#Cc1cn([C@@H]2O[C@H](CO)[C@@H](O)[C@@H]2N)c2ncnc(N)c12 ; strain or isolate: TOWNE ; method: virus yield ; value: <110 µM
Nc1ncnc2c1ccn2[C@@H]1O[C@H](CO)[C@@H](O)[C@@H]1O ; strain or isolate: TOWNE ; value: >100 µM
N#Cc1c(N)n(Cc2ccc(Br)cc2)c2ncnc(N)c12 ; strain or isolate: TOWNE ; method: plaque count ; value: 0.17 µM
Nc1ncnc2c1c(I)cn2[C@@H]1O[C@H](CO)[C@@H](O)[C@H]1O ; method: plaque count ; value: 0.5 µM
C/C=C1/CCC23C[C@H]1C[C@@H]2CC[C@H]1[C@]2(C)COC(C)(C)O[C@@H]2CC[C@@]13C ; method: plaque count ; value: >500 µM
COC(=O)[C@H](C)NP(=O)(OC[C@@H]1C[C@]12C[C@@H]2n1cnc2c(N)ncnc21)Oc1ccccc1 ; method: plaque count ; value: 0.38 µM
N#Cc1cn([C@@H]2O[C@H](CO)[C@@H](O)[C@@H]2Cl)c2ncnc(N)c12 ; strain or isolate: TOWNE ; method: virus yield ; value: <75 µM
C[C@@]12COCO[C@@H]1CC[C@@]1(C)[C@H]2CC[C@H]2C[C@@H]3CC21CCC3=O ; method: plaque count ; value: >500 µM
N#Cc1cn([C@@H]2O[C@H](CO)[C@@H](O)[C@@H]2N=[N+]=[N-])c2ncnc(N)c12 ; strain or isolate: TOWNE ; method: virus yield ; value: <37 µM
CC1(C)CCC[C@@]2(C)[C@H]1CC[C@H]1C[C@@H]3CC12CCC3=O ; method: plaque count ; value: >500 µM

For reference, 3 entries again:

compound,strain or isolate,method,value
COC(=O)[C@H](C)NP(=O)(OC[C@@H]1C[C@]12C[C@@H]2n1cnc2c(N)ncnc21)Oc1ccccc1,,plaque count,0.38 µM
Nc1ncnc2c1c(I)cn2[C@@H]1O[C@H](CO)[C@@H](O)[C@H]1O,,plaque count,0.5 µM
N#Cc1c(N)n(COCCO)c2ncnc(N)c12,,plaque count,32 µM

Blank or dashed fields: not listed here. ECn is the concentration giving n% inhibition of infection, replication or growth.